Laboratory results taken from article PMC7290494, “Repurposing Cancer Drugs Batimastat and Marimastat to Inhibit the Activity of a Group I Metalloprotease from the Venom of the Western Diamondback Rattlesnake, Crotalus atrox” (2020).

Sequences of proteins named here, by UniProt entry; tags and fusion partners are left off.
UniProt Q91401, whole entry, looked up: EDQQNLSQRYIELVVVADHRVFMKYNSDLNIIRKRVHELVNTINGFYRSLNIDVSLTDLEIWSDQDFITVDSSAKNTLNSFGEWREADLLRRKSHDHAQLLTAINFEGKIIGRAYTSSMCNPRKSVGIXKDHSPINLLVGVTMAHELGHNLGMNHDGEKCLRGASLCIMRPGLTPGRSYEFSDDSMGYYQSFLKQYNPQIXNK

Target: CAMP-2 (Crotalus atrox, UniProt Q91401)
Experiment: DQ-gelatin fluorogenic metalloprotease (collagenolytic) assay
Conditions: 2 μg CAMP-2; 5 min preincubation with inhibitor; DQ-gelatin 10 μg/mL; 37 °C; 30 min

Compound | % inhibition at around 3 μM
CNC(=O)[C@H](Cc1ccccc1)NC(=O)[C@H](CC(C)C)[C@H](CSc1cccs1)C(=O)NO | Its collagenolytic activity is completely inhibited by batimastat and marimastat
CNC(=O)[C@@H](NC(=O)[C@H](CC(C)C)[C@H](O)C(=O)NO)C(C)(C)C | Its collagenolytic activity is completely inhibited by batimastat and marimastat
